{"source": "patent US20250283886", "proteins": {"B1": {"name": "Vibrio proteolyticus aminopeptidase (protein)", "chain": "MPPITQQATVTAWLPQVDASQITGTISSLESFTNRFYTTTSGAQASDWIASEWQALSASLPNASVKQVSHSGYNQKSVVMTITGSEAPDEWIVIGGHLDSTIGSHTNEQSVAPGADDDASGIAAVTEVIRVLSENNFQPKRSIAFMAYAAEEVGLRGSQDLANQYKSEGKNVVSALQLDMTNYKGSAQDVVFITDYTDSNFTQYLTQLMDEYLPSLTYGFDTCGYACSDHASWHNAGYPAAMPFESKFNDYNPRIHTTQDTLANSDPTGSHAKKFTQLGLAYAIEMGSATGDTPTPGNQ"}, "B2": {"name": "Bacillus stearothermophilus Peptidase M28 (protein)", "chain": "MAKLDETLTMLKALTDAKGVPGNEREARDVMKTYIAPYADEVTTDGLGSLIAKKEGKSGGPKVMIAGHLDEVGFMVTQIDDKGFIRFQTLGGWWSQVMLAQRVTIVTKKGDITGVIGSKPPHILPSEARKKPVEIKDMFIDIGATSREEAMEWGVRPGDMIVPYFEFTVLNNEKMLLAKAWDNRIGCAVAIDVLKQLKGVDHPNTVYGVGTVQEEVGLRGARTAAQFIQPDIAFAVDVGIAGDTPGVSEKEAMGKLGAGPHIVLYDATMVSHRGLREFVIEVAEELNIPHHFDAMPGVGTDAGAIHLTGIGVPSLTIAIPTRYIHSHAAILHRDDYENTVKLLVEVIKRLDADKVKQLTFDE"}, "B3": {"name": "T. aquaticus Aminopeptidase T (protein)", "chain": "MDAFTENLNKLAELAIRVGLNLEEGQEIVATAPIEAVDFVRLLAEKAYENGASLFTVLYGDNLIARKRLALVPEAHLDRAPAWLYEGMAKAFHEGAARLAVSGNDPKALEGLPPERVGRAQQAQSRAYRPTLSAITEFVTNWTIVPFAHPGWAKAVFPGLPEEEAVQRLWQAIFQATRVDQEDPVAAWEAHNRVLHAKVAFLNEKRFHALHFQGPGTDLTVGLAEGHLWQGGATPTKKGRLCNPNLPTEEVFTAPHRERVEGVVRASRPLALSGQLVEGLWARFEGGVAVEVGAEKGEEVLKKLLDTDEGARRLGEVALVPADNPIAKTGLVFFDTLFDENAASHIAFGQAYAENLEGRPSGEEFRRRGGNESMVHVDWMIGSEEVDVDGLLEDGTRVPLMRRGRWVI"}}, "key": {"[1]": {"molecular_target": "T1, EEPFQQ", "T1 chain": "EEPFQQ"}, "[2]": {"molecular_target": "T2, TTPFQQ", "T2 chain": "TTPFQQ"}, "[3]": {"molecular_target": "T3, MMPFQQ", "T3 chain": "MMPFQQ"}, "[4]": {"molecular_target": "T4, RRPFQQ", "T4 chain": "RRPFQQ"}, "[5]": {"molecular_target": "T5, YYPFQQ", "T5 chain": "YYPFQQ"}, "[6]": {"molecular_target": "T6, KKPFQQ", "T6 chain": "KKPFQQ"}, "[7]": {"molecular_target": "T7, DDPFQQ", "T7 chain": "DDPFQQ"}, "[8]": {"molecular_target": "T8, VVPFQQ", "T8 chain": "VVPFQQ"}, "[9]": {"molecular_target": "T9, NNPFQQ", "T9 chain": "NNPFQQ"}, "[10]": {"molecular_target": "T10, FWPLPWPDDDY{LYSN3}NH2", "T10 chain": "FWPLPWPDDDYK"}, "[11]": {"molecular_target": "T11, PPPFQQ", "T11 chain": "PPPFQQ"}, "[12]": {"molecular_target": "T12, SSPFQQ", "T12 chain": "SSPFQQ"}, "[13]": {"molecular_target": "T13, YAAFAAWADDDW1", "T13 chain": "YAAFAAWADDDW"}, "[14]": {"molecular_target": "T14, IIPFQQ", "T14 chain": "IIPFQQ"}, "[15]": {"molecular_target": "T15, WAAAFPDDDF1", "T15 chain": "WAAAFPDDDF"}, "[16]": {"molecular_target": "T16, CCPFQQ", "T16 chain": "CCPFQQ"}, "[17]": {"molecular_target": "T17, PLPWPDDDY{LYSN3}NH2", "T17 chain": "PLPWPDDDYX"}, "[18]": {"molecular_target": "T18, AAPFQQ", "T18 chain": "AAPFQQ"}, "[19]": {"molecular_target": "T19, GGPFQQ", "T19 chain": "GGPFQQ"}, "[20]": {"molecular_target": "T20, LLPFQQ", "T20 chain": "LLPFQQ"}, "[21]": {"molecular_target": "T21, FFPFQQ", "T21 chain": "FFPFQQ"}, "[22]": {"molecular_target": "T22, WWPFQQ", "T22 chain": "WWPFQQ"}, "[23]": {"molecular_target": "T23, FYPLPWPDDDY{LYSN3}NH2", "T23 chain": "FYPLPWPDDDYX"}, "[24]": {"molecular_target": "T24, QQPFQQ", "T24 chain": "QQPFQQ"}, "[25]": {"molecular_target": "T25, QP5-Atto649N (KAAAAAAFK{LYSN3}NH2)", "T25 chain": "KAAAAAAFKX"}, "[26]": {"molecular_target": "T26, HHPFQQ", "T26 chain": "HHPFQQ"}, "[27]": {"molecular_target": "T27, YYPYYP{LYSN3}NH2", "T27 chain": "YYPYYPX"}, "[28]": {"molecular_target": "T28, AAPAAP{LYSN3}NH2", "T28 chain": "AAPAAPX"}, "[29]": {"molecular_target": "T29, FFPFFP{LYSN3}NH2", "T29 chain": "FFPFFPX"}, "[30]": {"molecular_target": "T30, YYMYYM{LYSN3}NH2", "T30 chain": "YYMYYMX"}}, "data": [{"protein": "B1", "values": [{"measurement": "HPLC Assay Conv; 1 mM Peptide, 1 uM enzyme, RT/0.5 hr", "setting": "[1]", "value": 0, "unit": "%"}, {"measurement": "HPLC Assay Conv; 1 mM Peptide, 1 uM enzyme, RT/0.5 hr", "setting": "[2]", "value": 100, "unit": "%"}, {"measurement": "HPLC Assay Conv; 1 mM Peptide, 1 uM enzyme, RT/0.5 hr", "setting": "[3]", "value": 100, "unit": "%"}, {"measurement": "HPLC Assay Conv; 1 mM Peptide, 1 uM enzyme, RT/0.5 hr", "setting": "[4]", "value": 79, "unit": "%"}, {"measurement": "HPLC Assay Conv; 1 mM Peptide, 1 uM enzyme, RT/0.5 hr", "setting": "[5]", "value": 56, "unit": "%"}, {"measurement": "HPLC Assay Conv; 1 mM Peptide, 1 uM enzyme, RT/0.5 hr", "setting": "[6]", "value": 32, "unit": "%"}, {"measurement": "HPLC Assay Conv; 1 mM Peptide, 1 uM enzyme, RT/0.5 hr", "setting": "[7]", "value": 0, "unit": "%"}, {"measurement": "HPLC Assay Conv; 1 mM Peptide, 1 uM enzyme, RT/0.5 hr", "setting": "[8]", "value": 100, "unit": "%"}, {"measurement": "HPLC Assay Conv; 1 mM Peptide, 1 uM enzyme, RT/0.5 hr", "setting": "[9]", "value": 15, "unit": "%"}, {"measurement": "HPLC Assay Conv; 200 uM Peptide, 4 uM enzyme, 37 C/1 hr", "setting": "[10]", "value": 100, "unit": "%"}, {"measurement": "HPLC Assay Conv; 400 uM Peptide, 8 uM enzyme, HEPES pH 8.0, 37 C/1 hr", "setting": "[10]", "value": 100, "unit": "%"}, {"measurement": "HPLC Assay Conv; 1 mM Peptide, 1 uM enzyme, RT/0.5 hr", "setting": "[11]", "value": 0, "unit": "%"}, {"measurement": "HPLC Assay Conv; 1 mM Peptide, 1 uM enzyme, RT/0.5 hr", "setting": "[12]", "value": 48, "unit": "%"}, {"measurement": "HPLC Assay Conv; 1 mM Peptide, 1.2 uM enzyme, RT/0.5 hr", "setting": "[13]", "value": "Distribution (product: Mainly ADDDWK)"}, {"measurement": "HPLC Assay Conv; 1 mM Peptide, 1 uM enzyme, RT/0.5 hr", "setting": "[14]", "value": 100, "unit": "%"}, {"measurement": "HPLC Assay Conv; 300 uM Peptide, 8 uM enzyme, pH 8, 60 mM KOAc, 37 C/2 hr", "setting": "[15]", "value": 100, "unit": "%"}, {"measurement": "HPLC Assay Conv; 1 mM Peptide, 1 uM enzyme, RT/0.5 hr", "setting": "[16]", "value": 70, "unit": "%"}, {"measurement": "HPLC Assay Conv; 300 uM Peptide, 4 uM enzyme, 37 C/0.5 hr", "setting": "[17]", "value": 100, "unit": "%"}, {"measurement": "HPLC Assay Conv; 1 mM Peptide, 1 uM enzyme, RT/0.5 hr", "setting": "[18]", "value": 100, "unit": "%"}, {"measurement": "HPLC Assay Conv; 1 mM Peptide, 1 uM enzyme, RT/0.5 hr", "setting": "[19]", "value": 8, "unit": "%"}, {"measurement": "HPLC Assay Conv; 1 mM Peptide, 1 uM enzyme, RT/0.5 hr", "setting": "[20]", "value": 100, "unit": "%"}, {"measurement": "HPLC Assay Conv; 1 mM Peptide, 1 uM enzyme, RT/0.5 hr", "setting": "[21]", "value": 100, "unit": "%"}, {"measurement": "HPLC Assay Conv; 1 mM Peptide, 1 uM enzyme, RT/0.5 hr", "setting": "[22]", "value": 82, "unit": "%"}, {"measurement": "HPLC Assay Conv; 200 uM Peptide, 4 uM enzyme, 37 C/0.5 hr", "setting": "[23]", "value": 100, "unit": "%"}, {"measurement": "HPLC Assay Conv; 300 uM Peptide, 4 uM enzyme, 37 C/0.5 hr", "setting": "[23]", "value": 100, "unit": "%"}, {"measurement": "HPLC Assay Conv; 1 mM Peptide, 1 uM enzyme, RT/0.5 hr", "setting": "[24]", "value": 66, "unit": "%"}, {"measurement": "HPLC Assay Conv; 37 uM Peptide, 8 uM Enzyme, 37 C/0.5 hr", "setting": "[25]", "value": 100, "unit": "%"}, {"measurement": "HPLC Assay Conv; 1 mM Peptide, 1 uM enzyme, RT/0.5 hr", "setting": "[26]", "value": 12, "unit": "%"}]}, {"protein": "B2", "values": [{"measurement": "HPLC Assay Conv; 1 mM Peptide, 1 uM Enzyme, 37 C/1 hr", "setting": "[27]", "value": 10, "unit": "%"}, {"measurement": "HPLC Assay Conv; 1 mM Peptide, 1 uM Enzyme, 37 C/1 hr", "setting": "[28]", "value": 100, "unit": "%"}, {"measurement": "HPLC Assay Conv; 1 mM Peptide, 1 uM Enzyme, 37 C/1 hr", "setting": "[29]", "value": 30, "unit": "%"}, {"measurement": "HPLC Assay Conv; 1 mM Peptide, 1 uM Enzyme, 37 C/1 hr", "setting": "[30]", "value": ">50", "unit": "%"}]}, {"protein": "B3", "values": [{"measurement": "HPLC Assay Conv; 1 mM Peptide, 1 uM Enzyme, 37 C/1 hr", "setting": "[27]", "value": 30, "unit": "%"}, {"measurement": "HPLC Assay Conv; 1 mM Peptide, 1 uM Enzyme, 37 C/1 hr", "setting": "[28]", "value": ">90", "unit": "%"}, {"measurement": "HPLC Assay Conv; 1 mM Peptide, 1 uM Enzyme, 37 C/1 hr", "setting": "[29]", "value": 60, "unit": "%"}, {"measurement": "HPLC Assay Conv; 1 mM Peptide, 1 uM Enzyme, 37 C/1 hr", "setting": "[30]", "value": 85, "unit": "%"}]}]}
